Compound potency records, mixed from different reports. Data source: NIAID ChemDB in PubChem.

All rows: growth or infection tests; species: HIV-1; read-out: EC50

ECn: concentration that inhibits the pathogen or its effect by n%. Conditions beyond the fields shown may differ between rows.

{"smiles": "c1ccc2c(CN3CCCNCCNCCCNCC3)cc(CN3CCCNCCNCCCNCC3)cc2c1", "strain": "NL4-3", "cell line": "MT-4", "method": "cytopathic effect / MTT", "result": "0.2 µg/mL"}
{"smiles": "Cc1cc(C#N)cc(C)c1Oc1ccnc(NC2CCN(Cc3ccc(S(C)(=O)=O)cc3)CC2)n1", "strain": "IIIB", "cell line": "MT-4", "method": "MTT", "result": "0.0003 µg/mL"}
{"smiles": "Cc1cc(Cl)cc(S(=O)(=O)c2cccc(N)c2C#N)c1", "strain": "IIIB", "cell line": "MT-4", "method": "cytopathic effect", "result": "0.02 µM"}
{"smiles": "O=C(O)c1cc(CN2CCCNCCNCCCNCC2)ccc1CN1CCCNCCNCCCNCC1", "strain": "AOM", "cell line": "MT-4", "method": "cytopathic effect / MTT", "result": ">10 µg/mL"}
{"smiles": "C=C1[C@H](CO)[C@@H](O)C[C@@H]1n1cnc2c(=O)[nH]c(N)nc21", "strain": "IIIB", "cell line": "MT-4", "changes": "Resistant strain (K103N + Y181C)", "method": "MTT", "result": "0.034 µM"}
{"smiles": "Cc1ccnc2c1NC(=O)c1cccnc1N2C1CC1", "strain": "IIIB", "cell line": "AA5", "method": "cytopathic effect / XTT", "result": "0.7 µM"}
{"smiles": "Cc1ccnc2c1NC(=O)c1cccnc1N2C1CC1", "strain": "NNRTI-resistant (RT Y188L)", "cell line": "MAGI", "changes": "RT-Y188L", "method": "β-galactosidase", "result": ">10 µM"}
{"smiles": "Cc1cc(C#N)cc(C)c1Oc1ccc([N+](=O)[O-])c(NC2CCN(Cc3ccc(S(N)(=O)=O)cc3)CC2)n1", "strain": "IIIB", "cell line": "MT-4", "changes": "Resistant strain (K103N + Y181C)", "method": "MTT", "result": ">7.6 µM"}
{"smiles": "CONC(=O)c1ccc(NC(=O)CSc2nc3ncccc3n2-c2ccc(C3CC3)c3ccccc23)c(Cl)c1", "strain": "RES056", "cell line": "MT-4", "method": "MTT", "result": ">1.05 µM"}
{"smiles": "Nc1nc(NC2CC2)c2ncn([C@H]3C=C[C@@H](CO)O3)c2n1", "strain": "BRU PITT.(RT-M184V)", "cell line": "PBMC", "changes": "RT-M184V", "method": "cytopathic effect / MTT", "result": "2.2 µM"}
{"smiles": "NS(=O)(=O)c1ccc(NC(=O)CSc2nc3ncccc3n2-c2ccc(C3CC3)c3ccccc23)c(Br)c1", "strain": "IIIB", "cell line": "MT-4", "method": "MTT", "result": "0.059 µM"}
{"smiles": "c1cc(CCN2CCCNCCNCCCNCC2)ccc1CCN1CCCNCCNCCCNCC1", "strain": "AOM", "cell line": "MT-4", "method": "cytopathic effect / MTT", "result": "5.6 µg/mL"}
{"smiles": "Nc1nc(=O)n([C@H]2CO[C@@H](CO)S2)cc1F", "strain": "IIIB", "cell line": "H9", "method": "p24", "result": "1 µM"}
{"smiles": "Cc1cc(C)c(-n2c(SCC(=O)Nc3ccc(S(N)(=O)=O)cc3Br)nc3ncccc32)c(C)c1", "cell line": "MT-4", "method": "MTT", "result": "0.21 µM"}
{"smiles": "CCOC(=O)[C@H](CS)NC(=O)CC[C@H](N)C(=O)O", "strain": "IIIB", "cell line": "H9(HIV-1(IIIB)) + H9", "method": "p24", "result": "400 µM"}
{"smiles": "Nc1nc(NC2CC2)c2ncn([C@H]3C=C[C@@H](CO)C3)c2n1", "strain": "NL4-3 Recombinant", "cell line": "MT-2", "method": "cytopathic effect / XTT", "result": "2.4 µM"}
{"smiles": "CC(=O)Oc1ccc(/C=C/C(=O)O[C@@H](C(=O)O)[C@@H](OC(=O)/C=C/c2ccc(OC(C)=O)c(OC(C)=O)c2)C(=O)O)cc1OC(C)=O", "strain": "NL4-3", "cell line": "MT-4", "changes": "Dextran sulfate-resistant", "result": ">74 µM"}
{"smiles": "CC(C)Nc1cccnc1N1CCN(C(=O)c2cc3cc(NS(C)(=O)=O)ccc3[nH]2)CC1", "strain": "IIIB", "cell line": "MT-4", "method": "MTT", "result": "0.038 µM"}
{"smiles": "Cc1cn([C@H]2C=C[C@@H](CO)O2)c(=O)[nH]c1=O", "strain": "HXB2", "cell line": "MT-2", "method": "cytopathic effect / XTT", "result": "3.1 µM"}
{"smiles": "Clc1cc(CN2CCCNCCNCCCNCC2)c(Cl)cc1CN1CCCNCCNCCCNCC1", "strain": "168.10", "cell line": "SupT1 + Sup-T1", "method": "cytopathic effect / MTT", "result": "0.048 µg/mL"}
{"smiles": "Nc1nc(=O)n([C@@H]2CO[C@H](CO)S2)cc1F", "strain": "IIIB", "cell line": "CEM", "method": "p24", "result": "0.2 µM"}
{"smiles": "COc1cc(C(F)(F)F)cc(S(=O)(=O)c2cccc(N)c2C#N)c1", "cell line": "HeLa + HELA CD4+", "changes": "RT-K103N Y181C", "method": "β-galactosidase", "result": ">50 µM"}
{"smiles": "Nc1nc(N)c2ncn([C@H]3CO[C@@H](CO)O3)c2n1", "strain": "LAI", "cell line": "PBMC", "method": "p24", "result": "4 µM"}
{"smiles": "NC(=O)c1ccc(NC(=O)CSc2nc3ncccc3n2-c2ccc(C3CC3)c3ccccc23)c(Br)c1", "strain": "RES056", "cell line": "MT-4", "method": "MTT", "result": ">0.66 µM"}
{"smiles": "Cc1cc(O)cc(S(=O)(=O)c2cccc(N)c2C#N)c1", "cell line": "HeLa + HELA CD4+", "changes": "RT-K103N Y181C", "method": "β-galactosidase", "result": ">50 µM"}
{"smiles": "Nc1ncnc2c1ncn2/C=C1/C[C@@H]1CO", "cell line": "MT-4", "result": "50 µM"}
{"smiles": "CCC(NC(=O)c1ccc(NC(=O)CSc2nc3ncccc3n2-c2ccc(C3CC3)c3ccccc23)c(Cl)c1)C(=O)O", "strain": "IIIB", "cell line": "MT-4", "method": "MTT", "result": "0.087 µM"}
{"smiles": "Cc1cc(C#N)cc(C)c1Oc1ccc(N)c(NC2CCN(Cc3ccc(S(N)(=O)=O)cc3)CC2)n1", "strain": "IIIB", "cell line": "MT-4", "changes": "Resistant strain (K103N + Y181C)", "method": "MTT", "result": "0.99 µM"}
{"smiles": "Nc1cccc2c1ncn2[C@@H]1O[C@H](CO)[C@@H](O)[C@H]1O", "strain": "IIIB", "cell line": "MT-4", "method": "cytopathic effect / MTT", "result": ">125 µg/mL"}
{"smiles": "Cc1cn([C@H]2C[C@H](N=[N+]=[N-])[C@@H](CO)O2)c(=O)[nH]c1=O", "strain": "Site-directed mutant", "cell line": "MT-2", "changes": "RT-K103N", "method": "cytopathic effect / XTT", "result": "0.85 µM"}
{"smiles": "c1ncc(CN2CCCNCCNCCCNCC2)cc1CN1CCCNCCNCCCNCC1", "strain": "NL4-3", "cell line": "MT-4", "method": "cytopathic effect / MTT", "result": "1 µg/mL"}
{"smiles": "NC(=O)c1ccc(NC(=O)CSc2nc3ncccc3n2-c2ccc(C3CC3)c3ccccc23)c(Cl)c1", "strain": "IIIB", "cell line": "MT-4", "method": "MTT", "result": "0.12 µM"}
{"smiles": "N#Cc1c(N)cccc1S(=O)(=O)c1cc(Cl)ccc1Cl", "strain": "IIIB", "cell line": "MT-4", "method": "cytopathic effect", "result": "3.5 µM"}
{"smiles": "C1CNCCNCCCN(CCCN2CCCNCCNCCCNCC2)CCNC1", "strain": "AOM", "cell line": "MT-4", "method": "cytopathic effect / MTT", "result": "0.19 µg/mL"}
{"smiles": "O=c1[nH]cnc2c1ncn2[C@H]1CC[C@@H](CO)O1", "strain": "IIIB", "cell line": "MT-2", "method": "cytopathic effect / MTT", "result": "9.1 µM"}
{"smiles": "Cc1cc(Br)cc(S(=O)(=O)c2cccc(N)c2C#N)c1", "cell line": "HeLa + HELA CD4+", "changes": "RT-Y188C", "method": "β-galactosidase", "result": "0.21 µM"}
{"smiles": "CC(Sc1nc2ncccc2n1-c1ccc(C2CC2)c2ccccc12)C(=O)Nc1ccc(S(N)(=O)=O)cc1Br", "strain": "IIIB", "cell line": "MT-4", "method": "MTT", "result": "0.11 µM"}
{"smiles": "Nc1ncnc2c1ncn2/C=C1/C[C@H]1CO", "cell line": "CEM + CEM-SS", "result": "11 µM"}
{"smiles": "c1cc(CN2CCCNCCCNCCNCCC2)ccc1CN1CCCNCCCNCCNCCC1", "strain": "NL4-3", "cell line": "MT-4", "changes": "AMD3100-resistant", "method": "cytopathic effect / MTT", "result": "2.65 µg/mL"}
{"smiles": "O=[N+]([O-])c1cccc2c1ncn2[C@@H]1O[C@H](CO)[C@@H](O)[C@@H]1O", "strain": "IIIB", "cell line": "MT-4", "method": "cytopathic effect / MTT", "result": "79.4 µg/mL"}
{"smiles": "CCOC(=O)c1ccc(NC(=O)CSc2nc3ncccc3n2-c2ccc(C3CC3)c3ccccc23)c(Br)c1", "strain": "RES056", "cell line": "MT-4", "method": "MTT", "result": ">3.19 µM"}